According to paper PMC8084346, “Balancing the influenza neuraminidase and hemagglutinin responses by exchanging the vaccine virus backbone” (2021):
Like-named read-outs stand apart in the source and are kept apart here.

What was measured:
[1] = target: neuraminidase (NA) from A/Brisbane/02/2018 (N1-BR18) (influenza A virus A/Brisbane/02/2018 (H1N1))
[2] = target: neuraminidase (NA) from A/Brisbane/02/2018 (N1-BR18) (influenza A virus A/Brisbane/02/2018 (H1N1)); remark: listed apart in the source

Substance: neuraminidase (NA) from A/Brisbane/02/2018 (N1-BR18)
- stoichiometry N [1]: 4
- stoichiometry N [2]: 2
